Laboratory results published in PMC4191344, “Identification and characterization of Aβ peptide interactors in Alzheimer’s disease by structural approaches” (Frontiers in Aging Neuroscience, 2014).

Target: Amyloid-beta 1-40 peptide
Assay: SDS-PAGE and Western blot for SDS-resistant multimers; Aβ aged for 72 h in the same buffer; tris-tricine SDS-PAGE

stoichiometry N: 2
Substance: Amyloid-beta 1-40 peptide
